Compound potency records, mixed from different reports. Data source: NIAID ChemDB in PubChem.

Common to all: whole-cell or culture tests; agent: Varicella zoster virus; cell line: HEL; read-out: EC50

ECn: concentration that inhibits the pathogen or its effect by n%.

compound	strain or isolate	method	result
Nc1nc2c(ncn2C[C@H](CO)CCO)c(=O)[nH]1	9/84-A	cytopathic effect / ELISA	>100 µM
Nc1nc2c(ncn2COCCO)c(=O)[nH]1	07/1 (TK-)	cytopathic effect	4 µg/mL
NC1=NS(=O)(=O)N(Cc2ccccc2)c2nc[nH]c21	YS	plaque count	>50 µg/mL
CC1(C)[C@@H](CCO)C[C@H]1n1nnc2c(N)nc(N)nc21	(TK+)/OKA	plaque count	20 µg/mL
O=c1[nH]c(=O)n([C@H]2C[C@H](O)[C@@H](CO)O2)cc1/C=C/Br	YS (TK+)	plaque count	0.0033 µM
O=c1[nH]c(=O)n([C@H]2C[C@H](O)[C@@H](CO)O2)cc1I	7	plaque count	0.39 µg/mL
O=C(O)P(=O)(O)O	9/84-A	cytopathic effect / ELISA	140 µM
CCOc1ccc(-c2cc3cn([C@H]4C[C@H](O)[C@@H](CO)O4)c(=O)nc3o2)cc1	07/1 (TK-)	cytopathic effect	>50 µM
Nc1ccn(C[C@@H](CO)OCP(=O)(O)O)c(=O)n1	OKA (TK+)	plaque count	0.38 µM
CCOC(=O)/C=C/C=C/[C@H]1O[C@@H](n2ccc(=O)[nH]c2=O)[C@H](O)[C@@H]1O	YS/R	-	>120 µM
COc1ccc2c(c1)OC1(C=C2)N(C)c2ccc(Cl)cc2C1(C)C	YS (TK+)	plaque count	4.4 µM
CC1(C)[C@@H](CCO)C[C@H]1n1cnc2c(N)nc(N)nc21	(TK+)/OKA	plaque count	>50 µg/mL
Cc1ccn2c(C3OCCO3)cnc2c1	Strain 07/1	-	>1000 µM
Nc1nc(=O)n([C@H]2C[C@H](O)[C@@H](CO)O2)cc1/C=C\Cl	YS	plaque count	0.3 µg/mL
CCCCC#Cc1cn(S(=O)(=O)c2ccc(C)cc2)c(=O)[nH]c1=O	07/1	plaque count	>16 µM
CO[C@H](CO)[C@@H](O)CCn1cnc2c(N)ncnc21	YS/R (TK-)	cytopathic effect	>400 µg/mL
Nc1nc(N)c2ncn(CCOCP(=O)(O)O)c2n1	Oka PMEA-resistant	cytopathic effect	41.3 µM
NC1=NS(=O)(=O)N(Cc2ccccc2)c2nc(Cc3ccccc3)[nH]c21	YS	plaque count	15 µg/mL
CC1(C)[C@@H](CCO)C[C@H]1n1nnc2c(Cl)nc(N)nc21	(TK+)/OKA	plaque count	>20 µg/mL
CN1c2ccc(Cl)cc2C(C)(C)C12C=Cc1cc([N+](=O)[O-])ccc1O2	OKA (TK+)	plaque count	1.9 µM
CO[C@H](CO)[C@@H](O)CCn1cnc2c(=O)[nH]c(N)nc21	07/1 (TK-)	cytopathic effect	>400 µg/mL
Cc1c(Br)cc(Br)c2ncc(CSCc3ccccc3F)n12	YS/R (TK-)	plaque count	>5 µg/mL
Nc1nc2c(ncn2CCCC(CO)CO)c(=O)[nH]1	9/84 + PER + ULF + BIR + Y	cytopathic effect / ELISA	17.8 µM
Nc1ncnc2c1ncn2[C@@H]1C=C(CO)[C@@H](O)[C@H]1O	07/1 YS/R (TK-)	cytopathic effect	9 µg/mL
CCCCc1cc2cnc(=O)[nH]c2o1	07/1	plaque count	171 µM
Nc1nc(=O)n([C@@H]2O[C@H](CO)[C@@H](O)[C@@H]2F)cc1I	OKA (TK+)	plaque count	0.054 µM
Cc1ccc(S(=O)(=O)n2cc(I)c(=O)[nH]c2=O)cc1	07/1	plaque count	80 µM
Nc1nc(N)c2ncn(CCOCP(=O)(O)O)c2n1	OKA (TK+)	plaque count	4.6 µM
Nc1ncnc2c1ncn2C(CF)CCCO	07-01/TK-	cytopathic effect	>50 µg/mL
Nc1ncnc2c1ncn2C[C@@H](CO)OCP(=O)(O)O	Oka PMEDAP-resistant	cytopathic effect	0.013 µM
COC(=O)C(C)(C)NP(=O)(OC[C@H]1O[C@@H](n2cc(/C=C/Br)c(=O)[nH]c2=O)C[C@@H]1O)Oc1ccccc1	YS (TK-)	cytopathic effect	>200 µM
CCCCCCCc1cc2cnc(=O)[nH]c2o1	OKA	plaque count	>80 µM
Cc1c(Br)cc(Br)c2ncc(CSCc3ccco3)n12	OKA (TK+)	plaque count	>20 µg/mL
O=c1[nH]c(=O)n([C@H]2C[C@H](O)[C@@H](CO)O2)cc1/C=C\Cl	OKA	plaque count	0.2 µg/mL
CC(C)CS[C@@H]1C[C@H](n2cnc3c(N)ncnc32)[C@@H](O)[C@H]1O	OKA	cytopathic effect	>200 µg/mL
Nc1ccn(CCCC(O)CF)c(=O)n1	OKA	cytopathic effect	>50 µg/mL
Cc1cccn2c(C3OCCO3)cnc12	OKA	-	>1000 µM
O=c1[nH]c(=O)n([C@H]2C[C@H](O)[C@@H](CO)O2)cc1/C=C/Br	OKA	cytopathic effect	0.007 µg/mL
Cc1ccn2c(C3OCCS3)cnc2c1	YS/R	-	>1000 µM
CCCc1ccc(OCCCc2cc3cn([C@H]4C[C@H](O)[C@@H](CO)O4)c(=O)nc3o2)cc1	(TK+)/OKA	plaque count	8.4 µM
Nc1nc2c(ncn2CCC(CO)CO)c(=O)[nH]1	YS (TK+)	plaque count	3.3 µM
CN1c2ccc(Cl)cc2C(C)(C)C12C=Cc1c(ccc3ccccc13)O2	07/1 (TK-)	plaque count	>8.8 µM
CC#Cc1cn([C@@H]2O[C@H](CO)[C@@H](O)[C@@H]2O)c(=O)[nH]c1=O	13 isolates	plaque count	0.46 µM
CCCCCCC#Cc1cn(S(=O)(=O)c2ccc(C)cc2)c(=O)[nH]c1=O	OKA	plaque count	>16 µM
Nc1nc(=O)n([C@H]2C[C@H](O)[C@@H](CO)O2)cc1/C=C/Cl	YS/R (TK-)	plaque count	>145 µM
Nc1ncnc2c1ncn2CCCC(O)CF	YS	cytopathic effect	>50 µg/mL
Nc1ncnc2c1ncn2CC[C@H](O)CCO	YS/R (TK-)	cytopathic effect	>400 µg/mL
O=c1nc2oc(-c3ccc(Cl)cc3)cc2cn1[C@H]1C[C@H](O)[C@@H](CO)O1	YS/R (TK-)	cytopathic effect	>50 µM
CCCCCCCC#Cc1c[nH]c(=O)[nH]c1=O	OKA	plaque count	37 µM
OC[C@H]1O[C@@H](c2cc(C(O)CBr)c(F)cc2F)C[C@@H]1O	YS (TK+)	plaque count	>20 µg/mL
O=C(O)CP(=O)(O)O	Oka PFA-resistant/A	cytopathic effect	254.2 µM
OC[C@H]1O[C@@H](c2cc(C(O)C(I)I)c(F)cc2F)C[C@@H]1O	07/1 (TK-)	plaque count	115 µg/mL
CC1(C)[C@@H](CCO)C[C@H]1n1nnc2c(N)ncnc21	(TK+)/OKA	plaque count	>20 µg/mL
O=c1nc2oc(CCCOc3ccccc3)cc2cn1[C@H]1C[C@H](O)[C@@H](CO)O1	(TK-)/YS/R	plaque count	>200 µM
Nc1ncnc2c1ncn2C[C@@H](CO)OCP(=O)(O)O	OKA (TK+)	plaque count	0.034 µM
Cc1c(Br)cc(Br)c2ncc(CSCc3ccc(Cl)cc3Cl)n12	OKA (TK+)	plaque count	9 µg/mL
O=C(O)P(=O)(O)O	Oka PMEDAP-resistant	cytopathic effect	141.2 µM
Cc1ccn2c(C(SCCc3ccccc3)SCCc3ccccc3)cnc2c1	YS/R	-	>1000 µM
Nc1nc2c(ncn2CC[C@H](O)CCO)c(=O)[nH]1	YS	cytopathic effect	>400 µg/mL
O=c1[nH]c(=O)n([C@@H]2O[C@H](CO)[C@@H](O)[C@@H]2O)cc1/C=C/Br	OKA-H12	plaque count	0.0006 µg/mL
Nc1nc2c(ncn2COC(CO)CO)c(=O)[nH]1	07/1 (TK-)	plaque count	12.2 µM
Cc1c(Br)cc(Br)c2ncc(CSCc3ccccc3Cl)n12	YS (TK+)	plaque count	>5 µg/mL
COc1ccc2c(c1)C=CC1(O2)N(C)c2ccccc2C1(C)C	OKA (TK+)	plaque count	>2.1 µM
C#Cc1cn(S(=O)(=O)c2ccc(C)cc2)c(=O)[nH]c1=O	OKA	plaque count	>16 µM
CCCCCCCOc1ccc(-c2cc3cn([C@H]4C[C@H](O)[C@@H](CO)O4)c(=O)nc3o2)cc1	YS/R (TK-)	cytopathic effect	>50 µM
Nc1nc2c(ncn2COC(CO)CO)c(=O)[nH]1	9/84 + PER + ULF + BIR + Y	cytopathic effect / ELISA	40.9 µM
COc1ccc(-c2cc3cn([C@H]4C[C@H](O)[C@@H](CO)O4)c(=O)nc3o2)cc1	07/1 (TK-)	cytopathic effect	>50 µM
O=c1nc2oc(CCCSc3ccccc3)cc2cn1[C@H]1C[C@H](O)[C@@H](CO)O1	(TK-)/YS/R	plaque count	>50 µM
COC(=O)[C@H](C)NP(=O)(OC[C@H]1O[C@@H](n2cc(/C=C/Br)c(=O)[nH]c2=O)C[C@@H]1O)Oc1ccc(Cl)cc1	YS	cytopathic effect	0.13 µM
O=c1[nH]c(=O)n([C@H]2C[C@H](O)[C@@H](CO)O2)cc1/C=C/Br	07/1 (TK-)	plaque count	91.9 µM
Cc1ccc(CSCc2cnc3c(Br)cc(Br)c(C)n23)cc1	07/1 (TK-)	plaque count	>20 µg/mL

9 of the rows above, restated:

compound,strain or isolate,method,result
O=c1[nH]c(=O)n([C@H]2C[C@H](O)[C@@H](CO)O2)cc1/C=C\Cl,OKA,plaque count,0.2 µg/mL
Cc1c(Br)cc(Br)c2ncc(CSCc3ccccc3F)n12,YS/R (TK-),plaque count,>5 µg/mL
CC1(C)[C@@H](CCO)C[C@H]1n1cnc2c(N)nc(N)nc21,(TK+)/OKA,plaque count,>50 µg/mL
Nc1nc(N)c2ncn(CCOCP(=O)(O)O)c2n1,Oka PMEA-resistant,cytopathic effect,41.3 µM
Nc1nc2c(ncn2CCCC(CO)CO)c(=O)[nH]1,9/84 + PER + ULF + BIR + Y,cytopathic effect / ELISA,17.8 µM
O=c1[nH]c(=O)n([C@@H]2O[C@H](CO)[C@@H](O)[C@@H]2O)cc1/C=C/Br,OKA-H12,plaque count,0.0006 µg/mL
COC(=O)[C@H](C)NP(=O)(OC[C@H]1O[C@@H](n2cc(/C=C/Br)c(=O)[nH]c2=O)C[C@@H]1O)Oc1ccc(Cl)cc1,YS,cytopathic effect,0.13 µM
Cc1ccc(CSCc2cnc3c(Br)cc(Br)c(C)n23)cc1,07/1 (TK-),plaque count,>20 µg/mL
Nc1ncnc2c1ncn2CCCC(O)CF,YS,cytopathic effect,>50 µg/mL

Rows are shuffled and stem from different studies. Blank or dashed fields: not listed here.